Results of unrelated studies side by side (data: NIAID ChemDB).

Shared fields: tests in culture; species: HIV-1; cell line: C8166; measure: EC50

ECn: concentration that inhibits the pathogen or its effect by n%. Neighbouring rows are from separate reports. Blank or dashed fields: not listed here.

smiles,strain or isolate,mutations,method,value
CCN1c2ncccc2NC(=O)c2cc(CCOc3ccc(-c4cc(OC)c(O)c(C(=O)O)c4)cc3C)cnc21,-,RT-K103N Y181C,p24,>0.05 µM
Cc1cn([C@H]2C[C@H](N=[N+]=[N-])[C@@H](CO)O2)c(=O)[nH]c1=O,IIIB,-,syncytia,0.0049 µM
Cc1nc2ccc(Br)cc2c(-c2ccc(Cl)cc2)c1C(OC(C)C)C(=O)O,-,-,luciferase / reporter gene,<20 µM
CCN1c2ncc(CCOc3ccc(-c4ccc[n+]([O-])c4)cc3C)cc2C(=O)Nc2c(C)ccnc21,-,RT-K103N Y181C,p24,<0.01 µM
CCCC(C(=O)O)c1c(C)nc2ccc(Cl)cc2c1-c1ccc(OC)cc1C,-,-,luciferase / reporter gene,<20 µM
CCCC(=O)O[C@@]12[C@H](OC(=O)/C=C/c3ccccc3)[C@@H](C)[C@@]3(O)[C@@H](C=C(CO)C[C@]4(O)C(=O)C(C)=C[C@@H]34)[C@@H]1C2(C)C,IIIB,-,p24 / ELISA,0.0079 µM
CCc1ccc(-c2c(C(OC3(C)CCCC3)C(=O)O)c(C)nc3ccc(Cl)cc23)cc1,-,-,luciferase / reporter gene,<20 µM
CCCCCCCCC(=O)O[C@@]12[C@H](OC(=O)/C=C/c3ccc(Br)cc3)[C@@H](C)[C@@]3(O)[C@@H](C=C(CO)C[C@]4(O)C(=O)C(C)=C[C@@H]34)[C@@H]1C2(C)C,IIIB,-,syncytia / visual reading,0.0096 µM
CCN1c2ncc(CCOc3ccc(C(=O)NC(C)(C)CC(=O)O)cc3C)cc2C(=O)N(C)c2cccnc21,IIIB,-,p24,<0.01 µM
CCCCCCCCCCCCCCCCCCCC(=O)O[C@@H]1[C@@H](C)[C@@]2(O)[C@@H](C=C(CO)C[C@]3(O)C(=O)C(C)=C[C@@H]23)[C@@H]2C(C)(C)[C@]12O,IIIB,-,p24 / ELISA,40 µM
Cc1nc2ccc(Cl)cc2c(-c2cccnc2)c1C(OC(C)C)C(=O)O,-,-,luciferase / reporter gene,<20 µM
Nc1nc(NC2CC2)c2ncn([C@H]3C=C[C@@H](CO)C3)c2n1,RT-L74V M184V,-,cytopathic effect / XTT,20 µM
CC(C)OC(=O)OCOP(=O)(CO[C@H](C)Cn1cnc2c(N)ncnc21)OCOC(=O)OC(C)C,-,K103N,p24 / ELISA,0.05067 µM
COC(C(=O)O)c1c(C)nc2ccc(Cl)cc2c1-c1ccc2ccn(C)c2c1,-,-,luciferase / reporter gene,<20 µM
CCN1c2ncc(CCOc3ccc(-c4cc(C(=O)O)on4)cc3C)cc2C(=O)N(C)c2cccnc21,IIIB,-,p24,>0.05 µM
CCCC(=O)O[C@@]12[C@H](OC(=O)/C=C/c3ccccc3)[C@@H](C)[C@@]3(O)[C@@H](C=C(COC(=O)/C=C/c4ccc5c(c4)OCO5)C[C@]4(O)C(=O)C(C)=C[C@@H]34)[C@@H]1C2(C)C,IIIB,-,p24 / ELISA,0.6714 µM
CCN1c2ncc(CCOc3ccc(-c4ccncc4)cc3)cc2C(=O)N(C)c2cccnc21,IIIB,-,p24,<0.01 µM
C=C(C)CC(C(=O)O)c1c(-c2ccc(Cl)cc2)c2cc(Br)ccc2oc1=O,-,-,luciferase / reporter gene,<20 µM
C/C=C/C(=O)O[C@@H]1[C@@H](C)[C@@]2(O)[C@@H](C=C(CO)C[C@]3(O)C(=O)C(C)=C[C@@H]23)[C@@H]2C(C)(C)[C@]12OC(=O)/C=C/C,IIIB,-,p24 / ELISA,0.6224 µM

Repeating the final 2 entries:

smiles	strain or isolate	mutations	method	value
C=C(C)CC(C(=O)O)c1c(-c2ccc(Cl)cc2)c2cc(Br)ccc2oc1=O	-	-	luciferase / reporter gene	<20 µM
C/C=C/C(=O)O[C@@H]1[C@@H](C)[C@@]2(O)[C@@H](C=C(CO)C[C@]3(O)C(=O)C(C)=C[C@@H]23)[C@@H]2C(C)(C)[C@]12OC(=O)/C=C/C	IIIB	-	p24 / ELISA	0.6224 µM